In patent US4935362A, “BMY-28121, a new antitumor antibiotic” (Bristol-Myers Company, priority 1987, dated 1990):

Test system: anaerobic bacteria
Assay: Antibacterial spectrum, anaerobic bacteria
Type: cell-based
Details: incl. clindamycin-resistant C. difficile and clindamycin or ampicillin-resistant B. fragilis

COc1cccc2c1N[C@H](O)[C@@H]1CC(/C=C/C(=O)N(C)C)=CN1C2=O [BMY-28121 A]
inhibition of anaerobic bacteria: inhibited all of the gram-positive and negative organisms
